Values from PubChem BioAssay AID624099 (ICCB-Longwood, 2012)
Shown is an unselected part of about 21,000 deposited reagents. In the full data, 497 (2.4%) were called active. 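Higher z means weaker E2 silencing; only reporter increases were scored, and knock-downs that hurt cell survival may mask genuine repressor factors.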

Assay: 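Knock-downs relieving repression by E2 of an HPV18 LCR luciferase reporter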 (primary screen)
Cell system: human C33A cervical carcinoma cells (HPV-negative) stably expressing BPV1 E2 and an HPV18 LCR luciferase reporter
Knock-down reagent: siRNA pool against human genes, 40 nM
Time to read-out: 72 h
Measurement: 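Per-well luciferase luminescence, z-scored on each plate against the plate mean and SD with control wells left out, then averaged across three replicate plates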
Scale: mean z-score and z-score: higher = stronger reporter signal, weaker E2 silencing
Rule for the call: 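Mean z ≥ 2 together with z ≥ 2 in two or more of the three replicates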

gene | mean z-score | z-score, replicate A | z-score, replicate B | z-score, replicate C | Call
NDUFB9 (NADH:ubiquinone oxidoreductase subunit B9) | -1.05 | -0.98 | -1.06 | -1.12 | inactive
MPC1L | 0.3 | 0.31 | 0.52 | 0.08 | inactive
SLC38A10 | 0.23 | 0.41 | 0.21 | 0.09 | inactive
LRRC34 (leucine rich repeat containing 34) | 0.25 | 0.57 | -0.04 | 0.21 | inactive
SH3RF3 (SH3 domain containing ring finger 3) | -2.25 | -2.07 | -2.14 | -2.55 | inactive
SLC16A12 | -2 | -1.88 | -1.89 | -2.22 | inactive
RALB (RAS like proto-oncogene B) | 0.44 | 0.43 | 0.72 | 0.16 | inactive
HADHB | -1.39 | -1.39 | -1.52 | -1.26 | inactive
SLC35B3 | -0.65 | -0.63 | -0.91 | -0.42 | inactive
COQ8B (coenzyme Q8B) | 1.37 | 1.22 | 1.84 | 1.05 | inactive
PRAP1 (proline rich acidic protein 1) | 3.56 | 2.73 | 3.5 | 4.45 | active
PTPRZ1 (protein tyrosine phosphatase receptor type Z1) | 0.55 | 0.65 | 0.45 | 0.55 | inactive
WDR59 (WD repeat domain 59) | -0.04 | -0.48 | -0.2 | 0.56 | inactive
SLC12A2 | -0.11 | 0.15 | -0.4 | -0.09 | inactive
OR5H15 (olfactory receptor family 5 subfamily H member 15) | -0.17 | 0.04 | -0.04 | -0.51 | inactive
SLC2A4 | 0.46 | 0.27 | 0.26 | 0.86 | inactive
ZNF589 (zinc finger protein 589) | -0.71 | -0.75 | -0.53 | -0.84 | inactive
ZNF551 (zinc finger protein 551) | 0.08 | 0.06 | 0.37 | -0.19 | inactive
TJP2 (tight junction protein 2) | 0.11 | 0.41 | -0.03 | -0.06 | inactive
HERC2 (HECT and RLD domain containing E3 ubiquitin protein ligase 2) | -0.25 | -0.53 | -0.39 | 0.17 | inactive
SMIM8 (small integral membrane protein 8) | -1.82 | -1.78 | -1.83 | -1.85 | inactive
LOC402436 (retired record) | 0.3 | 0.38 | 0.3 | 0.23 | inactive
FBXO8 (F-box protein 8) | -1.2 | -1.16 | -1.09 | -1.34 | inactive
HSSUCCDH (retired record) | 1.85 | 1.64 | 1.88 | 2.02 | inactive
LOC343153 (retired record) | -2.07 | -2.25 | -2.19 | -1.77 | inactive
LOC145845 | -1.2 | -1.77 | -0.56 | -1.27 | inactive
FBXL4 (F-box and leucine rich repeat protein 4) | 0.75 | 0.7 | 0.76 | 0.8 | inactive
SIAH1P1 (siah E3 ubiquitin protein ligase 1 pseudogene 1) | 1.54 | 1.54 | 1.42 | 1.65 | inactive
LOC402188 (retired record) | -0.84 | -1.19 | -0.75 | -0.59 | inactive
PCNX2 (pecanex 2) | 1.27 | 1.45 | 1.39 | 0.97 | inactive
NEFM (neurofilament medium chain) | -0.49 | -0.5 | -0.53 | -0.43 | inactive
GOLGA2P10 (GOLGA2 pseudogene 10) | -2.09 | -1.9 | -1.9 | -2.49 | inactive
TMEM167A (transmembrane protein 167A) | -0.71 | -0.59 | -1 | -0.55 | inactive
MDFI (MyoD family inhibitor) | 0.75 | 0.6 | 0.95 | 0.72 | inactive
MRPS9 (mitochondrial ribosomal protein S9) | 0.83 | 1.24 | 0.52 | 0.72 | inactive
METTL17 (methyltransferase like 17) | 0.23 | -0.1 | 0.21 | 0.57 | inactive
SLC26A7 | 0.91 | 0.82 | 0.72 | 1.2 | inactive
KIF27 (kinesin family member 27) | 0.77 | 0.69 | 0.74 | 0.87 | inactive
CNGB3 (cyclic nucleotide gated channel subunit beta 3) | 0.64 | 0.78 | 0.53 | 0.59 | inactive

6 entries from above, reduced to “mean z-score”:
PCNX2 (pecanex 2) = 1.27
NEFM (neurofilament medium chain) = -0.49
GOLGA2P10 (GOLGA2 pseudogene 10) = -2.09
TMEM167A (transmembrane protein 167A) = -0.71
MDFI (MyoD family inhibitor) = 0.75
MRPS9 (mitochondrial ribosomal protein S9) = 0.83
